PubChem BioAssay AID1224833, University of Georgia, 2016
In all, the deposit lists about 12,000 reagents; this is a part drawn at random. About 5,600 of them (46%) were called active. 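Active calls cover z-scores past 1 in both directions, so they include lowered as well as raised rotavirus replication.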 No sequences are given here.

- Screen: 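Human genes whose knock-down alters rotavirus replication in monkey cells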 (primary screen)
- Cells: monkey MA104 kidney cells
- Reagents: siRNA pool against human genes, 50 nM
- Time to read-out: 48 h knock-down before infection; read 24 h after infection
- Challenge: infection with rotavirus strain RV3 two days after transfection; infectious dose for this stage not given
- Detection: 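Rotavirus antigen per well by fluorescent immunoassay, normalised to non-targeting control wells on each plate and given as a standard z-score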
- Direction: z-score vs non-targeting control: higher = more rotavirus replication than with non-targeting control
- Hit rule: In these data the active calls have z-score vs non-targeting control at about -1 or lower, or at about 1 or higher
- Calls: active = z-score beyond 1 either way; inactive = z-score within 1 of zero

Gene	z-score vs non-targeting control	Call
STAC3	0.201	inactive
PDE4A	-0.605	inactive
AGO3	1.01	active
CPNE1	-0.21	inactive
C19orf33	-1.77	active
EXTL2	-2.04	active
RPRD2	-0.186	inactive
KIR3DL2	0.505	inactive
OR9G4	-1.61	active
HBZ	1.88	active
UQCRQ	0.474	inactive
C14orf93	-2.48	active
RELT	-0.502	inactive
FKBP1A	-1.47	active
PTTG1IP	-2.36	active
FIS1	0.126	inactive
LBR	-1.54	active
SMYD1	-1.23	active
AP5B1	1.84	active
ZNF746	-0.455	inactive
CIDEB	0.612	inactive
CD9	-0.574	inactive
SRA1	0.377	inactive
KIF5A	-0.999	inactive
SP5	-1.59	active
PIAS1	-0.642	inactive
HIF1A	-1.16	active
OXT	0.259	inactive
TEX29	2.54	active
TMEM245	-0.259	inactive
TM6SF1	-0.0679	inactive
BPY2C	-1.18	active
OR1E2	-0.658	inactive
SLC38A5	-0.2	inactive
APPL1	0.0684	inactive
SCRT1	-2.48	active
KBTBD6	-1.32	active
TIGD1	-2.71	active
OTUD5	0.825	inactive
C10orf62	-1.45	active
TOX	-0.537	inactive
ADAP2	0.0688	inactive
NDUFA9	3.22	active
HOXD3	-1.2	active
ZNF222	-1.54	active
GRIP1	-0.718	inactive
ZNF382	-2.43	active
PASD1	-2.32	active
DUS1L	0.0207	inactive
INCA1	0.623	inactive
NAPB	-2.24	active
ATP6AP2	-0.344	inactive
ATP1B2	1.49	active
RBL2	-1.19	active
PSMB2	1.78	active
DEFB106B	0.434	inactive
GREB1	-1.2	active
SMTN	-0.393	inactive
VEGFA	0.504	inactive
EXOSC5	-0.858	inactive
SVOPL	4.91	active
APBB2	-0.76	inactive
ARHGAP24	-2.18	active
FHL1	-1.78	active
TULP1	1.97	active
DOCK9	1.12	active
BAMBI	-0.151	inactive
CEACAM4	-0.0324	inactive
MAMDC4	-2.03	active
BCLAF3	-0.125	inactive
SRXN1	-1.41	active
SCCPDH	1.48	active
STX7	-0.453	inactive
DOK1	0.623	inactive
SSUH2	-1.24	active
